Results of unrelated studies side by side (data: NIAID ChemDB).

All rows: whole-cell or culture tests

An empty or dashed field is not shown.

COc1cc2oc(=O)ccc2cc1CC(O)C(C)(C)O ; agent: Klebsiella pneumoniae ; strain or isolate: ESBL-3967 ; measure: MIC ; result: 62.5 µg/mL
Oc1ccc2oc3ccccc3c2c1 ; agent: Rhinovirus ; strain or isolate: TYPE 16 ; cell line: HELA-H1 ; method: plaque count ; measure: inhibition ; tested at: 50 µM ; result: 93%
Nc1cc(Cl)nc2c1ncn2[C@H]1C[C@H](O)[C@@H](CO)O1 ; agent: Maedi-visna virus ; strain or isolate: KV1772 ; cell line: Sheep chondrocytes G81092 ; method: cytopathic effect ; measure: EC50 ; result: 15 µM
O=c1cnn([C@@H]2O[C@H](CO)[C@@H](O)[C@H]2O)c(=O)[nH]1 ; agent: Sandfly fever virus ; strain or isolate: Sicilian ; cell line: VERO ; method: cytopathic effect ; measure: EC50 ; result: 0.04 µg/mL
C[C@@H]1CN(c2c(F)c(N)c3c(=O)c(C(=O)O)cn(C4CC4)c3c2F)C[C@H](C)N1 ; agent: Streptococcus pneumoniae ; strain or isolate: Clinical isolate 6406 ; measure: MIC ; result: 0.5 µg/mL
OC[C@H]1O[C@@H](n2cnc3c(NC4CC4)nc(Cl)nc32)[C@H](O)[C@@H]1O ; agent: Maedi-visna virus ; strain or isolate: KV1772 ; cell line: Sheep chondrocytes G81092 ; method: cytopathic effect ; measure: EC50 ; result: 15 µM
N[C@@H](C(=O)N[C@@H]1C(=O)N2C(C(=O)O)=C(Cl)CS[C@H]12)c1ccccc1 ; agent: Haemophilus influenzae ; strain or isolate: 44 strains ; measure: MIC50 ; result: 1 µg/mL
Nc1cc2[nH]cnc2c(=O)[nH]1 ; agent: Respiratory syncytial virus ; strain or isolate: S-8 ; cell line: HeLa ; method: cytopathic effect ; measure: EC50 ; result: 1.8 µg/mL
CC(=O)NC[C@H]1CN(c2ccc(N3CCN(C(=O)CO)CC3)c(F)c2)C(=O)O1 ; agent: Streptococcus pneumoniae ; strain or isolate: Penicillin-susceptible ; measure: MIC90 ; result: 0.5 µg/mL
OC[C@H]1O[C@@H](n2cnc3c(NC4CCCCCC4)nc(Cl)nc32)CC1O ; agent: Bovine herpesvirus 1 ; strain or isolate: IRB-LA ; cell line: MDBK ; method: cytopathic effect ; measure: EC50 ; result: 50 µM
C#CC[C@@H](C(=O)N[C@H](/C=C/C(=O)OCC)C[C@@H]1CCNC1=O)n1cccc(NC(=O)c2cc(C)on2)c1=O ; agent: Rhinovirus ; strain or isolate: Serotype 23 ; cell line: H1-HELA ; method: cytopathic effect / XTT ; measure: EC50 ; result: 0.032 µM
CO/N=C(/C(=O)N[C@@H]1C(=O)N2C(C(=O)O)=C(COC(N)=O)CS[C@H]12)c1ccco1 ; agent: Haemophilus influenzae ; strain or isolate: 44 strains ; measure: MIC90 ; result: 16 µg/mL
C=CCc1ccc(O)c(-c2ccc(O)c(CC=C)c2)c1 ; agent: Candida albicans ; strain or isolate: YL 345 ; method: broth dilution ; measure: MIC ; result: 128 µg/mL
CC[C@H]1OC(=O)[C@H](C)[C@@H](O[C@H]2C[C@@](C)(OC)[C@@H](O)[C@H](C)O2)[C@H](C)[C@@H](O[C@@H]2O[C@H](C)C[C@H](N(C)C)[C@H]2O)[C@](C)(OC)C[C@@H](C)C(=O)[C@H](C)[C@@H](O)[C@]1(C)O ; agent: Mycobacterium abscessus ; strain or isolate: X74 ; method: broth dilution ; measure: MIC ; result: 2 µg/mL
CCOC(=O)Nc1cc2c(c(N)n1)N=C(c1cccc(OC)c1)CO2 ; agent: Encephalitozoon intestinalis ; cell line: RK-13 ; measure: inhibition ; tested at: 1 µg/mL ; result: 70.6%
OC[C@@H]1CC[C@H](n2cnc3c(NC4CC4)ncnc32)O1 ; agent: Maedi-visna virus ; strain or isolate: KV1772 ; cell line: Sheep chondrocytes G81092 ; method: cytopathic effect ; measure: EC50 ; result: 0.15 µM
CO[C@@H]1C[C@@H](C[C@H]2CC[C@H](C)[C@H]([C@@H](C)C(C)=O)O2)OC2(O[C@](C)([C@H]3CC[C@@](C)([C@@H]4O[C@@H]([C@H]5O[C@@](O)(CO)[C@@H](C)C[C@@H]5C)C[C@@H]4C)O3)C[C@H]2C)[C@@H]1C ; agent: Toxoplasma gondii ; strain or isolate: RH ; method: uracil uptake / radiometric ; measure: inhibition ; tested at: 0.05 µg/mL ; result: 100%
COC(=O)Nc1nc2ccccc2[nH]1 ; agent: Cryptococcus neoformans ; strain or isolate: ATCC 14116 ; measure: EC90 ; result: 2.3 µg/mL
CN1CCN(c2c(F)cc3c(=O)c(C(=O)O)cn4c3c2SCC4)CC1 ; agent: Staphylococcus aureus ; strain or isolate: 30 strains ; measure: MIC90 ; result: 2 µg/mL
NC12CC3CC(CC(C3)C1)C2 ; agent: Influenza A virus ; strain or isolate: H1N1 SUITA/1/89 ; cell line: MDCK ; method: plaque count ; measure: EC50 ; result: >50 µg/mL
C[C@H]1c2cccc(O)c2C(O)=C2C(=O)[C@]3(O)C(O)=C(C(N)=O)C(=O)[C@@H](N(C)C)[C@@H]3[C@@H](O)[C@@H]21 ; agent: Mycobacterium chelonae ; method: broth dilution ; measure: MIC50 ; result: >128 µg/mL
Nc1ncnc2c1ccn2[C@@H]1O[C@H](CO)[C@@H](O)[C@H]1O ; agent: Respiratory syncytial virus ; strain or isolate: 58-8 ; cell line: HeLa ; method: cytopathic effect ; measure: EC50 ; result: 1 µg/mL
CCCCNC(=O)n1c(NC(=O)OC)nc2ccccc21 ; agent: Cryptococcus neoformans ; strain or isolate: IU8698 ; measure: EC90 ; result: 3.8 µg/mL
c1ccc2c(c1)oc1ccccc12 ; agent: Rhinovirus ; strain or isolate: TYPE 16 ; cell line: HELA-H1 ; method: cytopathic effect ; measure: EC50 ; result: >200 µM
CCCSc1ccc2nc(NC(=O)OC)[nH]c2c1 ; agent: Encephalitozoon intestinalis ; cell line: RK-13 ; measure: inhibition ; tested at: 10 µg/mL ; result: 88.2%
C[C@@]1(O)[C@@H](CO)O[C@@H](n2ccc(=O)[nH]c2=O)[C@@H]1O ; agent: Respiratory syncytial virus ; strain or isolate: LONG ; cell line: HeLa ; method: cytopathic effect ; measure: EC50 ; result: >500 µg/mL
CCOC(=O)Nc1cc2c(cn1)N=C(c1ccccc1)[C@H](C)N2 ; agent: Encephalitozoon intestinalis ; cell line: RK-13 ; measure: inhibition ; tested at: 0.01 µg/mL ; result: 71.9%
OC[C@@H]1C[C@@H](O)[C@H](n2cnc3c(NC4CCCCCC4)cc(Cl)nc32)O1 ; agent: Maedi-visna virus ; strain or isolate: KV1772 ; cell line: Sheep chondrocytes G81092 ; method: cytopathic effect ; measure: EC50 ; result: 0.15 µM
C[C@H]1CN(c2c(F)cc3c(=O)c(C(=O)O)cn(C4CC4)c3c2OC(F)F)CCN1 ; agent: Staphylococcus aureus ; strain or isolate: 10 strains (oxacillin-resistant) ; measure: MIC50 ; result: 0.5 µg/mL
CC(=O)Oc1ccccc1C(=O)Nc1ncc([N+](=O)[O-])s1 ; agent: Encephalitozoon intestinalis ; cell line: RK-13 ; measure: inhibition ; tested at: 0.001 µg/mL ; result: 19.4%
N#CC[C@H](C1CCCC1)n1cc(-c2ncnc3[nH]ccc23)cn1 ; agent: SHIV ; cell line: Macrophage ; method: p24 / ELISA ; measure: EC50 ; result: 0.4 µM
COc1ccc2cc3[n+](cc2c1OC)CCc1cc2c(cc1-3)OCO2 ; agent: Encephalitozoon intestinalis ; cell line: RK-13 ; measure: inhibition ; tested at: 1 µg/mL ; result: 62%
NC(=O)c1[nH]nc([C@@H]2O[C@H](CO)[C@@H](O)[C@H]2O)c1O ; agent: Respiratory syncytial virus ; strain or isolate: S-2 ; cell line: HeLa ; method: cytopathic effect ; measure: EC50 ; result: 0.02 µg/mL
CO[C@H]1[C@@H](OC(=O)/C=C/C=C/C=C/C=C/C(=O)O)CC[C@@]2(CO2)[C@@H]1[C@@]1(C)O[C@@H]1CC=C(C)C ; agent: Encephalitozoon intestinalis ; cell line: RK-13 ; measure: inhibition ; tested at: 0.1 µg/mL ; result: 85.4%
N=C(N)c1ccc2[nH]c(C(=N)N)cc2c1 ; agent: Respiratory syncytial virus ; strain or isolate: 58-8 ; cell line: HeLa ; method: cytopathic effect ; measure: EC50 ; result: >25 µg/mL
COC(=O)Nc1nc2ccc(Sc3ccccc3)cc2[nH]1 ; agent: Cryptococcus neoformans ; strain or isolate: IU8698 ; measure: EC50 ; result: 0.011 µg/mL
CC1(C)[C@@H](O[C@H]2O[C@H](C(=O)O)[C@@H](O)[C@H](O)[C@H]2O[C@@H]2O[C@H](C(=O)O)[C@@H](O)[C@H](O)[C@H]2O)CC[C@]2(C)[C@H]3C(=O)C=C4[C@@H]5C[C@@](C)(C(=O)O)CC[C@]5(C)CC[C@@]4(C)[C@]3(C)CC[C@@H]12 ; agent: Sandfly fever virus ; strain or isolate: Sicilian ; cell line: VERO ; method: cytopathic effect ; measure: EC50 ; result: 215 µg/mL
Cc1cn([C@H]2C[C@H](N=[N+]=[N-])[C@@H](CO)O2)c(=O)[nH]c1=O ; agent: SHIV ; cell line: PBMC ; method: p24 / ELISA ; measure: EC90 ; result: 0.03 µM
NC(=O)c1c[se]c([C@@H]2O[C@H](CO)[C@@H](O)[C@H]2O)n1 ; agent: Sandfly fever virus ; strain or isolate: Sicilian/Brownell ; cell line: VERO ; method: cytopathic effect ; measure: EC50 ; result: 1.2 µg/mL
O=c1c2ccccc2ccc2ccccc12 ; agent: Rhinovirus ; strain or isolate: TYPE 14 ; cell line: HELA-H1 ; method: cytopathic effect ; measure: EC50 ; result: 30 µM
OC[C@H]1O[C@@H](n2cnc3c(NC4CCCC4)cc(Cl)nc32)[C@H](O)[C@@H]1O ; agent: Bovine herpesvirus 1 ; strain or isolate: IRB-LA ; cell line: MDBK ; method: cytopathic effect ; measure: EC50 ; result: >50 µM

The first 5 rows once more:

SMILES,agent,strain or isolate,cell line,method,measure,tested at,result
COc1cc2oc(=O)ccc2cc1CC(O)C(C)(C)O,Klebsiella pneumoniae,ESBL-3967,-,-,MIC,-,62.5 µg/mL
Oc1ccc2oc3ccccc3c2c1,Rhinovirus,TYPE 16,HELA-H1,plaque count,inhibition,50 µM,93%
Nc1cc(Cl)nc2c1ncn2[C@H]1C[C@H](O)[C@@H](CO)O1,Maedi-visna virus,KV1772,Sheep chondrocytes G81092,cytopathic effect,EC50,-,15 µM
O=c1cnn([C@@H]2O[C@H](CO)[C@@H](O)[C@H]2O)c(=O)[nH]1,Sandfly fever virus,Sicilian,VERO,cytopathic effect,EC50,-,0.04 µg/mL
C[C@@H]1CN(c2c(F)c(N)c3c(=O)c(C(=O)O)cn(C4CC4)c3c2F)C[C@H](C)N1,Streptococcus pneumoniae,Clinical isolate 6406,-,-,MIC,-,0.5 µg/mL

Rows are shuffled and stem from different studies. A number after MIC or MFC names an inhibition level or a share of isolates. Percent inhibition refers to the dose given; in toxicity tests it is the harm to the cells. ECn is the concentration giving n% inhibition of infection, replication or growth.